Literature values in paper PMC4413526 (2014).

Conditions: 800/100 mg once daily, antiretroviral-naïve patients; cited from earlier work

Substance: darunavir/ritonavir
- Darunavir AUC24h, mean [SD]: 93,026 [27,050] ng•h/ml
- Darunavir C0h, mean [SD]: 2282 [1168] ng/ml
